A mixed list of measured activities; the numbers were collected in NIAID ChemDB.

Shared fields: tests in culture; species: HIV-1; cell line: MT-4; read-out: EC50

ECn is the concentration giving n% inhibition of infection, replication or growth.

compound	strain or isolate	changes	method	value
CCC[C@@]1(CCc2ccccc2)CC(O)=C([C@H](CC)c2cccc(NS(=O)(=O)c3ccc(C(F)(F)F)cn3)c2)C(=O)O1	r13205		reporter gene	729 nM
CN(C)C(=O)C(=O)N1CCN2CCn3c(nc(C(=O)NCc4ccc(F)cc4)c(O)c3=O)C1C2			p24	<50 µM
COc1cccc2c1nc(-c1ccccc1F)n2Cc1ccc(C(F)(F)F)cc1	IIIB			>5 µg/mL
CCc1c(Cc2cc(C)cc(C)c2)n(COCC#Cc2cccc(O[Si](c3ccccc3)(c3ccccc3)C(C)(C)C)c2)c(=O)[nH]c1=O	IIIB	EFV-resistant (K103R V179D P225H)	MTT	5.4 µM
COc1cccc2c1nc(-c1ccccc1F)n2CC#N	IIIB			>110 µg/mL
Cc1cc(/C=C/C#N)cc(C)c1Oc1nc(NC2CCN(Cc3ccccc3Br)CC2)nc2ccsc12	IIIB	NNRTI-resistant (RT E138K)	MTT	0.145 µM
CC1(C)CC=C(c2cn(-c3nccc(C(=O)NC4CCC(N5CC6CCC(C5)O6)CC4)n3)c3ccc(F)c([C@H](OC(C)(C)C)C(=O)O)c23)CC1	NL4-3	Q148R	luminescence	0.0046 µM
Cc1cc(/C=C/C#N)cc(C)c1Oc1nc(NC2CCN(Cc3ccccn3)CC2)nc2ccsc12	RES056		MTT	0.122 µM
Cc1ccc(S(=O)(=O)N2CCn3c(nc(C(=O)NCc4ccc(F)cc4)c(O)c3=O)C2)cc1			p24	<50 µM
COc1c(-c2cc(C)n(C)n2)c(O)c(S(=O)(=O)OC2CCCCC2)c2occc12	IIIB		MTT	0.000023 µM
Cc1nc2ccccc2c(-c2cc(F)c3c(c2C)CCCO3)c1[C@H](OC(C)(C)C)C(=O)O	NL4-3	T66I	luminescence	0.015 µM
CCc1c(Cc2cc(C)cc(C)c2)n(COCC#Cc2ccc(O[Si](c3ccccc3)(c3ccccc3)C(C)(C)C)cc2)c(=O)[nH]c1=O	IIIB	EFV-resistant (K103R V179D P225H)	MTT	>100 µM
CN(C)C(=O)C(=O)N1CCc2nc(C(=O)NCc3ccc(F)cc3)c(O)c(=O)n2CC1			p24	<50 µM
Cc1cc(/C=C/C#N)cc(C)c1Oc1nc(NC2CCN(Cc3ccccc3F)CC2)nc2ccsc12	IIIB	NNRTI-resistant (RT F227L V106A)	MTT	0.0406 µM
N#Cc1ccc(Nc2nc(Oc3c(F)cc(-c4ccc(C#N)cc4)cc3F)c3sccc3n2)cc1	IIIB	E138K	MTT	0.0166 µM
COc1c(C(=O)/C=C(/C)Nc2ccc([N+](=O)[O-])cc2)c(O)c(S(=O)(=O)Oc2ccc(F)cc2)c2occc12	IIIB		MTT	0.000037 µM
Cc1cnc(CN2CCn3c(nc(C(=O)NCc4ccc(F)cc4)c(O)c3=O)C2(C)C)o1			p24	<1 µM
O=C1Nc2ccc(Cl)cc2[C@@](C#CC2CC2)(C(F)(F)F)O1	IIIB	K103N	MTT	0.1016 µM
COc1c(C(=O)/C=C(/C)Nc2ccccc2)c(O)c(S(=O)(=O)Oc2ccc([N+](=O)[O-])cc2)c2occc12	IIIB		MTT	0.000042 µM
Cc1cc(-c2ccc(C#N)cc2)cc(Cl)c1Oc1nc(Nc2ccc(C#N)cc2)nc2ccsc12	RES056		MTT	0.148 µM
COc1cccc2c1nc(-c1ccccc1F)n2Cc1ccc2ccccc2c1	IIIB			>4 µg/mL
Cc1cc(C#N)cc(C)c1Oc1nc(NC2CCC(NCc3ccccc3)CC2)nc2ccsc12	IIIB	NNRTI-resistant (RT K103N)	MTT	0.754 µM
N#Cc1ccc(Nc2nc(Oc3ccc(-c4ccc(C#N)cc4)c(F)c3F)c3sccc3n2)cc1	IIIB	K103N	MTT	0.0094 µM
CCc1c(Cc2cc(C)cc(C)c2)n(COCC#Cc2cccc(CO)c2)c(=O)[nH]c1=O	IIIB	WT	MTT	0.003 µM
COc1c(-c2cc(C)n(-c3ccccc3)n2)c(O)c(S(=O)(=O)Oc2ccc(F)cc2)c2occc12	IIIB		MTT	0.000012 µM
CCC(CC)Cn1c(-c2ccccc2F)nc2c(OC)cccc21	IIIB			0.0024 µg/mL
Cc1cc(C#N)cc(C)c1Oc1nc(NC2CCN(Cc3ccc(S(N)(=O)=O)cc3)CC2)nc2sccc12	IIIB	NNRTI-resistant (RT L100I)	MTT	0.00444 µM
CCc1c(Cc2cc(C)cc(C)c2)n(COCC#Cc2ccc(N)cc2)c(=O)[nH]c1=O	IIIB	EFV-resistant (K103R V179D P225H)	MTT	6 µM
CC1(C)NCCn2c1nc(C(=O)NCc1ccc(F)cc1)c(O)c2=O			p24	<50 µM
N#Cc1cc(Cl)cc(Oc2c(Br)ccc(CC(=O)Nc3ccc(S(N)(=O)=O)cc3Cl)c2F)c1		M230L		0.0006 µM
Cc1cc(C#N)cc(C)c1Oc1nc(NC2CCC(NCc3ccc(O)cc3)CC2)nc2ccsc12	RES056		MTT	>20.1 µM
CC(C)[C@H](NC(=O)OCc1ccccn1)C(=O)N[C@@H](Cc1ccccc1)[C@@H](O)C[C@H](Cc1ccccc1)NC(=O)OCc1cccnc1	NL4-3	PR-I84V	p24	<0.8 µM
COc1ccc(OS(=O)(=O)c2c(O)c(-c3cc(C)on3)c(OC)c3ccoc23)cc1	IIIB		MTT	0.000028 µM

Repeating the final 4 entries:

compound,strain or isolate,changes,method,value
N#Cc1cc(Cl)cc(Oc2c(Br)ccc(CC(=O)Nc3ccc(S(N)(=O)=O)cc3Cl)c2F)c1,,M230L,,0.0006 µM
Cc1cc(C#N)cc(C)c1Oc1nc(NC2CCC(NCc3ccc(O)cc3)CC2)nc2ccsc12,RES056,,MTT,>20.1 µM
CC(C)[C@H](NC(=O)OCc1ccccn1)C(=O)N[C@@H](Cc1ccccc1)[C@@H](O)C[C@H](Cc1ccccc1)NC(=O)OCc1cccnc1,NL4-3,PR-I84V,p24,<0.8 µM
COc1ccc(OS(=O)(=O)c2c(O)c(-c3cc(C)on3)c(OC)c3ccoc23)cc1,IIIB,,MTT,0.000028 µM

An empty or dashed field is not shown. Lines come from different laboratories, so protocols vary.